This is a selection; strong and weak results do not stand in their true shares. Active and inactive are the calls of the source. Cut-off read from the data, not from the text of the source: active = inhibition above about 30%; inactive = the rest.
Assay: GDH-TPI coupling enzyme inhibitors, primary screen, artefact control for M. tuberculosis FBA inhibitor project, biochemical, absorbance, full deck (AID 588335);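 note: 0% = DMSO wells and 100% = wells lacking the enzyme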
Details: GDH-TPI coupled enzyme counterscreen, NADH absorbance; at 4.8 µM; active compounds read high

SMILES | inhibition
Nc1cccc([As](=O)(O)c2ccccc2)c1 | inactive: -13.6%
O=[As](O)(c1cccs1)c1cccs1 | inactive: 2.46%
Cc1ccc(OCC(=O)OC2CN3CCC2CC3)cc1 (configuration not stated) | inactive: 9.81%
O=P1(Nc2ccc(Br)cn2)COc2ccccc2OC1 | inactive: -7.77%
NS(=O)(=O)c1cccc(NC(=O)COC(=O)C(O)(c2ccccc2)c2ccccc2)c1 | inactive: -0.69%
O=P1(Nc2ncccn2)COc2ccccc2OC1 | inactive: -6.71%
CN(C)C1(CNC(=O)c2ccc(S(C)(=O)=O)cc2)CCCCC1 | inactive: -6.15%
CCCC1OP(=O)(Nc2ccccc2)OCC1CC (configuration not stated) | inactive: 1.38%
O=C(/C=C/c1ccccc1)OC1CN2CCC1CC2 (configuration not stated) | inactive: -12.8%
CC1CCC(C(C)C)C(OP(=O)(Nc2ccccn2)c2ccccc2)C1 (configuration not stated) | inactive: -0.96%
Cc1ccc(C(=O)OC2CN3CCC2CC3)cc1 (configuration not stated) | inactive: 5%
Cc1nn(-c2ccccc2)c2c1P(=O)(N1CCOCC1)N(C)C(c1ccccc1)=N2 (configuration not stated) | inactive: -1.13%
CC(C)/C=N\N=C(\N)N[N+](=O)[O-] | inactive: 0.32%
CN(C(=O)Cc1ccc(Cl)c(Cl)c1)[C@@H]1CCCC[C@H]1N1CCCC1 | inactive: 9.84%
CC1(CBr)Cn2c(nc3ccccc3c2=O)S1 (configuration not stated) | inactive: -1.88%
COc1ccccc1CNC(=O)COC(=O)C(O)(c1ccccc1)c1ccccc1 | inactive: 1.42%
CC(C)(C)C(=O)NC(Sc1ncccn1)C(Cl)(Cl)Cl (configuration not stated) | inactive: -3.7%
O=P1(N(CCCl)CCCl)NCCC(C(F)(F)F)O1 (configuration not stated) | inactive: 8.23%
Clc1n[nH]nc1-c1nn[nH][15n]1 | inactive: 11%
CCOP(=O)(NC(=NC(C)c1ccccc1)NC(C)c1ccccc1)OCC (configuration not stated) | inactive: 1.09%
O=P1(Nc2ccccn2)COc2ccccc2OC1 | inactive: 6.21%
CCC1=CC2Cc3nc4ccc(Cl)cc4c(N)c3C(C1)C2 (configuration not stated) | inactive: 14.4%
CCOP(=O)(Nc1ccc(C)cn1)OCC | inactive: -1.47%
CN(CCCl)Cc1cc(Cl)c(NC2=NCCN2)c(Cl)c1 | inactive: -0.52%
CCOP(=O)(Nc1cccc2ccccc12)OCC | inactive: -1.29%
COc1cc(C2NCCC3(OCCO3)C2(C)C)cc(OC)c1OC (configuration not stated) | inactive: 7.78%

SMILES | inhibition
Nc1cccc2c([As](=O)(O)O)cccc12 | inactive: 12.2%
Cc1ccc(NCCc2c([N+](=O)[O-])cc([N+](=O)[O-])cc2[N+](=O)[O-])cc1 | inactive: 10.7%
CCCOP(=S)(Nc1nc(N)cc(=O)[nH]1)OCCC | inactive: -7.81%
Cc1cccc(OCC(=O)OC2CN3CCC2CC3)c1 (configuration not stated) | inactive: 4.27%
O=[As](O)(c1cccc(O)c1)c1cccc(O)c1 | inactive: 1.44%
O=C(OC1CN2CCC1CC2)c1ccc(Cl)cc1 (configuration not stated) | inactive: -0.77%
CS(=O)(=O)c1ccc(Cl)c(NC(=O)COC(=O)C(O)(c2ccccc2)c2ccccc2)c1 | inactive: 7.33%
O=[As](O)(O)c1cccnc1 | inactive: 3.7%
COc1cc(C(=O)NCC2(N3CCOCC3)CCCCC2)cc(Cl)c1OC(C)C | inactive: -11.5%
CN(C(=O)Cc1ccccc1)[C@@H]1CC[C@]2(CCCO2)C[C@H]1N1CCCC1 | inactive: 6.74%
CCOP1(=S)c2c(C)nn(CCC#N)c2N=C(c2ccc(F)cc2)N1C (configuration not stated) | inactive: 14.3%
N#CCCN(C(=O)COC(=O)C(O)(c1ccccc1)c1ccccc1)c1ccc(F)cc1 | inactive: 2.76%
CN(C(=O)Cc1ccc(Cl)c(Cl)c1)[C@H]1CC[C@@]2(CCCO2)C[C@@H]1N1CCCC1 | inactive: -11.1%
O=[N+]([O-])c1ccc2c(c1)nnn2O | inactive: 18.9%
CN(C)C(=O)c1cc([N+](=O)[O-])cc2c1-c1c(cc([N+](=O)[O-])cc1[N+](=O)[O-])C2=O | inactive: 13.8%
NC(=O)Nc1ccc([As](=O)(O)O)cc1 | inactive: -1.72%
Nc1ccccc1[As](=O)(O)c1ccccc1 | inactive: 5.26%
O=C(O)COc1ccc([As](=O)(O)O)cc1[N+](=O)[O-] | inactive: 16%
O=P(Nc1nccs1)(Oc1ccccc1)Oc1ccccc1 | inactive: 10.4%
O=P(Nc1nccs1)(c1ccccc1)c1nc2ccccc2s1 (configuration not stated) | inactive: -1.89%
CCOP1(=S)c2c(C)nn(CCC#N)c2N=C(c2ccccc2F)N1C (configuration not stated) | inactive: -7.05%
CS(=O)(=O)c1cc([N+](=O)[O-])c2no[n+]([O-])c2c1 | inactive: 20.6%
O=[N+]([O-])c1cc([N+](=O)[O-])c(-c2ccn[nH]2)s1 | inactive: 18.9%
CC(C)NC(=O)NP(=O)(Oc1ccccc1)Oc1ccccc1 | inactive: 4.42%
O=C(OC1CN2CCC1CC2)c1cccc2[nH]cnc12 (configuration not stated) | inactive: 5.62%
CCN(CC)C(=S)SC(NC=O)C(Cl)(Cl)Cl (configuration not stated) | inactive: 2.62%

SMILES | inhibition
ClCCSc1nnc(-c2cccnc2)o1 | inactive: -5.91%
COC(=O)C1(C)COP(=O)(N2CCCCCC2)OC1 (configuration not stated) | inactive: -1.38%
CC(C)c1ccc(OP(=O)(Nc2ccccn2)Oc2ccccc2F)cc1 (configuration not stated) | inactive: 10.3%
Cc1ccc(OP(=O)(Nc2ccc([N+](=O)[O-])cn2)Oc2ccc(C)cc2)cc1 | inactive: 4.29%
Cc1ccc2nc3c(c(C)c2c1)CC(C(Cl)Cl)S3 (configuration not stated) | inactive: 13.6%
O=[N+]([O-])c1ccc(-c2cc([N+](=O)[O-])c(O)c([N+](=O)[O-])c2)cc1 | active: 35.7%
COc1cc(C(=O)NCC2(N3CCOCC3)CCCCC2)ccc1OCC(C)C | inactive: 4.9%
O=[As](O)(c1ccc(O)cc1)c1ccccc1O | inactive: -13.6%
C[As](=O)(O)c1cccc(C(=O)O)c1 | inactive: -10.8%
O=[N+]([O-])c1cc(Oc2ccc([N+](=O)[O-])cc2C(F)(F)F)cc([N+](=O)[O-])c1 | inactive: -5.96%
COc1ccc(N/C(=N/P(=O)(N2CCOCC2)N2CCOCC2)N2CCOCC2)cc1 | inactive: -0.63%
O=P1(N(CCCl)CCCl)Nc2ccccc2N1 | inactive: 7.05%
O=P1(N(CCCl)CCCl)OCCCN1CCCl (configuration not stated) | inactive: -3.21%
COc1cc(I)ccc1[As](=O)(O)O | inactive: -6.28%
COc1ccc2nc(NP(=O)(c3ccccc3)c3ccccc3)sc2c1 | inactive: -1.22%
Cc1c2c(nc3ccccc13)SC(C(Cl)Cl)C2 (configuration not stated) | inactive: 15%
Cc1cc(=O)[nH]c(N[N+](=O)[O-])n1 | inactive: 11.9%
O=C(OC1CN2CCC1CC2)C12CC3CC(CC(C3)C1)C2 (configuration not stated) | inactive: -10.6%
CCC(C)N(CC(C)C)C(=S)SC(NC(C)=O)C(Cl)(Cl)Cl (configuration not stated) | inactive: -1.54%
CSc1ccc(Nc2c([N+](=O)[O-])cc([N+](=O)[O-])cc2[N+](=O)[O-])cc1 | active: 31.9%
O=C(OC1CN2CCC1CC2)c1cccc([N+](=O)[O-])c1 (configuration not stated) | inactive: 2.54%
CCOC(=O)c1ccc(NC(=O)C(C)(CCl)SC)cc1 (configuration not stated) | inactive: -8.43%
O=C(O)C(=O)c1ccc(N(CCCl)CCCl)cc1 | inactive: 28.3%
O=C(Nc1ccncc1[N+](=O)[O-])c1ccc([N+](=O)[O-])cc1[N+](=O)[O-] | inactive: 5.71%
O=C(COc1ccccc1)OC1CN2CCC1CC2 (configuration not stated) | inactive: 0.39%
COP1(=S)c2c(C)nn(CCC#N)c2N=C(c2ccc(F)cc2)N1C (configuration not stated) | inactive: -2.35%

SMILES | inhibition
O=P(Nc1ccccn1)(c1cccc2ccccc12)c1cccc2ccccc12 | inactive: -3.82%
Cc1cc(SC(NC=O)C(Cl)(Cl)Cl)ncn1 (configuration not stated) | inactive: 9.91%
O=[N+]([O-])c1ccc(Nc2ccc(Oc3ccc([N+](=O)[O-])cc3[N+](=O)[O-])cc2)c([N+](=O)[O-])c1 | inactive: 13%
CCOC(=O)Nc1cccc([As](=O)(O)O)c1 | inactive: 11%
COP(=O)(OC)N1CC1c1ccccc1 (configuration not stated) | inactive: -3.54%
Cc1cc(SC(NC(=O)c2ccccc2)C(Cl)(Cl)Cl)nc(C(C)C)n1 (configuration not stated) | inactive: 6.87%
CCCCOc1ccc(C(=O)NCC2(N3CCCCC3)CCCCC2)cc1OC | inactive: -3.76%
CCOC(=O)Nc1ccc([As](=O)(O)O)c(O)c1 | inactive: 3.38%
O=C(O)C(O)c1ccc(N(CCCl)CCCl)cc1 (configuration not stated) | inactive: 9.33%
CC1CCNP(=O)(N(CCCl)CCCl)O1 (configuration not stated) | inactive: 0%
O=C(O)CNc1ccc([As](=O)(O)O)cc1 | inactive: 0.35%
COC(=O)C1(C)COP(=O)(Nc2ccccc2)OC1 (configuration not stated) | inactive: 7.8%
O=[N+]([O-])c1cccc(NC2=NCC(CBr)S2)c1 (configuration not stated) | inactive: 22.4%
O=[N+]([O-])c1ncn(CCn2ncnc2[N+](=O)[O-])n1 | inactive: 0%
CC(C)(C)C(=O)NC(Sc1ccncn1)C(Cl)(Cl)Cl (configuration not stated) | inactive: -3.38%
O=C(Nc1cc([As](=O)(O)O)ccc1O)c1ccccc1 | inactive: 3.35%
O=P1(N(CCCl)CCCl)OCCCS1 (configuration not stated) | inactive: 4.41%
CC1CCN(C(=O)Oc2c(Cl)cc(Cl)c3cccnc23)CC1 | inactive: -3.47%
c1cc(-c2nn[nH]n2)ccc1-c1nn[nH]n1 | inactive: 6.19%
CN(C)C(=O)OCCc1n(C)cc[n+]1C | inactive: -5.15%
CC(C)c1nc(Nc2ccccc2)n(P(=O)(N(C)C)N(C)C)n1 | inactive: 7.08%
CC(C)=N/N=C(\N)N[N+](=O)[O-] | inactive: 0%
CCN(/C(=N/P(=O)(N1CCOCC1)N1CCOCC1)N1CCOCC1)c1ccc(OC)cc1 | inactive: 3.1%
C[N+]1=C2C=CC=CC=C2SC12C([N+](=O)[O-])=CC([N+](=O)[O-])=C[C-]2[N+](=O)[O-] (configuration not stated) | inactive: 9.96%
